Among the data in PMC9304929 (2022) are Kd values, retold here.

The experiment has as its target SARS-CoV-2 spike receptor-binding domain (RBD), recombinant (SARS-CoV-2, UniProt P0DTC2). Put plainly: ELISA.

B1: recombinant monomeric C-reactive protein, wild type (natural protein)
chain: QTDMSRKAFVFPKESDTSYVSLKAPLTKPLKAFTVCLHFYTELSSTRGYSIFSYATKRQDNEILIFWSKDIGYSFTVGGSEILFEVPEVTVAPVHICTSWESASGIVEFWVDGKPRVRKSLKKGYTVGAEASIILGQEQDSFGGNFEGSQSLVGDIGNVNMWDFVLSPDEINTIYLGGPFSPNVLNWRALKYEVQGEVFTKPQLWP
modifications: citraconylated (residues not stated)
The term Kd denotes the free concentration of one partner at which half of the binding sites on the other are occupied at equilibrium, for simple one-to-one binding. For B1, the equilibrium dissociation constant (Kd) worked out at 24.4 nM.

B2: urea-denatured monomeric C-reactive protein (natural protein)
chain: B1 chain
As to B2, the Kd worked out at 44.9 nM.
